According to US7691572B2, “Method and kit for detecting resistance to antiviral drugs” (priority 1998, dated 2010):

How the values were obtained:
[1] = test system: HIV-1 reverse transcriptase; assay: Amp-RT assay, inhibition by 3TC-TP, reference viruses; assay type: biochemical; conditions: RTs carrying AZT (D67N, K70R, T215F, K219Q) or nevirapine (Y181C) resistance mutations
Excerpt: The phenotypic assay used in this example was based on the analysis of the susceptibility of HIV-1 reverse transcriptase activity from plasma to inhibition by 3TC-TP.
The assay detects reverse transcriptase activity by using a nonretroviral heteropolymeric RNA template derived from the encephalomyocarditis virus (EMCV) genome, and a complementary EMCV-specific DNA oligoprimer. The RT-generated EMCV cDNA is detected by PCR amplification and internal oligoprobing of the PCR product with an EMCV-specific probe.
Amp-RT detects reverse transcriptase activity by using a heterologous RNA template derived from the encephalomyocarditis virus (EMCV), a complementary DNA oligoprimer, and PCR amplification of reverse transcriptase-generated EMCV cDNA. […] To determine the susceptibility of the reverse transcriptase to 3TC-TP, an additional Amp-RT reaction was made in the presence of 3TC-TP, with concentrations of 3TC-TP ranging from 0.1 to 10 μM. […] PCR amplification of reverse transcriptase products was made as follows after the addition of 200 μM of each dNTP. A volume of 50 μl of PCR buffer containing 2.5 units of Taq polymerase, 100 ng of the sense primer EMCF1, and 200 μM of each dNTP was added to the reverse transcriptase mixture. […]

HIV-1 RT [2] = assay: Amp-RT assay, AZT-TP and other NRTI-TPs, reference viruses; assay type: biochemical; conditions: 1 μM AZT-TP
HIV-1 RT [3] = assay type: biochemical; conditions: 1 μM AZT-TP, Y181C
HIV-1 isolates = conditions: read-out: IC50 Culture, cited from earlier work

Nc1ccn([C@@H]2CS[C@H](COP(=O)(O)OP(=O)(O)OP(=O)(O)O)O2)c(=O)n1 [3TC-TP, 3TC-5′-triphosphate]
susceptibility to 3TC-TP [1]: susceptible

Cc1cn([C@H]2C[C@H](N=[N+]=[N-])[C@@H](COP(=O)(O)OP(=O)(O)OP(=O)(O)O)O2)c(=O)[nH]c1=O [AZT-TP, AZT-triphosphate]
% inhibition (SEM) (HIV-1 RT [2]; HIV-1Y181C/M184V): 94.4 (±3) % | % inhibition (SEM) (HIV-1 RT [2]; HIV-1181C/YEU, Y181C): 93.5 (±4.2) % | % inhibition (HIV-1 RT [3]; specimen 33, A62V, K70G, Q151M, M184V): 39.5% | % inhibition (HIV-1 RT [3]; specimen 34, A62V, K70G, Q151M, M184V): 45% | % inhibition (HIV-1 RT [3]; specimen 38, D67N, T69D, L214F, T215Y): 90% | % inhibition (HIV-1 RT [3]; specimen 44, A62V, I135T, T215Y, T69S-insertions SG): 96.5%

Cc1ccnc2c1NC(=O)c1cccnc1N2C1CC1 [nevirapine]
IC50 (HIV-1 isolates; isolate V818-5 (G190A, Y181C)): > 100 µM | IC50 (HIV-1 isolates; isolate W786-6 (K103N, Y181C)): 20 µM | IC50 (HIV-1 isolates; isolate X165-11 (G190A, Y181C)): 22 µM | IC50 (HIV-1 isolates; isolate X403-4 (Y181C)): 9 µM

Where two headings read alike, the source gives them in different places.
